This test deals with SARS-CoV 3CL protease (Severe acute respiratory syndrome coronavirus, UniProt P0C6X7). Briefly: In-vitro enzyme activity inhibition test on SARS-CoV 3CL protease (fluorescence resonance energy transfer method). It is filed as biochemical. To be noted: parallel tests 1, 2, 3, tested form: acetate (acetic acid salt/solvate form o).

Certain results were filed several times, with different values. This list holds those alone. An entry can have further records. Values that stand side by side do not match, cause unknown; dose, time, organism, isomer or construct need not be as stated for each record.

Take `Cc1cc2c(C(C)C)c(O)c(O)c(C=O)c2c(O)c1-c1c(C)cc2c(C(C)C)c(O)c(O)c(C=O)c2c1O`: the inhibition percentage was 9.43%, 6.51%, 14.2% (0.1 μM compound, 0.1 µM); 10.7% and 21.7% (0.5 μM compound, 0.5 µM).

Values taken from US20240074990A1 (priority 2022, published 2024).
